Measured values from several laboratories, pooled; numbers as filed in NIAID ChemDB.

Common to all: target-level tests; organism: Hepatitis C virus; target: RNA-dependent RNA polymerase; measure: IC50

ICn is the concentration giving n% inhibition. a–b is a range or a potency band. Lines come from different laboratories, so protocols vary.

smiles	value
COc1ccc(-c2cnc3c(-c4nn[nH]n4)cnn3c2C2CCCCC2)cc1	1–10 µM
C=C(Br)CN(C(=O)c1ccc(Cl)cc1Cl)C(Cc1ccccc1)C(=O)O	5–20 µM
COc1cc(C(=O)N2[C@@H](c3cscn3)[C@H](c3noc(C)n3)C[C@@]2(CC(C)C)C(=O)O)ccc1C(C)(C)C	<50 µM
CN(C(=O)c1ccc(Cl)cc1Cl)[C@@H](Cc1ccccc1)C(=O)O	5–20 µM
O=Cc1cc(O)c(O)c(O)c1	1000 µM
Cc1cc([C@@H]2C[C@@](CC(C)C)(C(=O)O)N(C(=O)c3ccc(C(C)(C)C)cc3)[C@H]2c2nccs2)on1	<50 µM
CCOC(=O)c1cnn2c(-c3ccc(Cl)cc3)cc(-c3ccc(F)cc3)nc12	>10 µM
O=C(O)C(Cc1ccccc1)N(Cc1cc(-c2ccc(Cl)c(F)c2)cs1)C(=O)c1ccc(Cl)cc1Cl	<5 µM
O=Cc1ccc(O)c(O)c1	>1000 µM
Cc1nc([C@@H]2C[C@@](CC(C)C)(C(=O)O)N(C(=O)c3ccc(C(C)(C)C)cc3)[C@H]2c2cccs2)n[nH]1	<50 µM
O=C(NS(=O)(=O)c1ccccc1)c1cnn2c(C3CCCCC3)c(-c3ccc(OCc4ccccc4)cc3)cnc12	<1 µM
CCOC(=O)c1ccccc1-c1ccc(CN(C(=O)c2ccc(Cl)cc2Cl)C(Cc2ccccc2)C(=O)O)s1	<5 µM
CC(C)C[C@@]1(C(=O)O)C[C@H](c2ncno2)[C@H](c2nc3ccccc3s2)N1C(=O)c1ccc(C(C)(C)C)c(Br)c1	<50 µM
C=CCCc1c(-c2ccc(OCc3ccccc3)cc2)nc2c(C(=O)O)c[nH]n2c1=O	>10 µM
O=Cc1ccc(O)c(O)c1O	7 µM
O=C(O)c1cnn2c(C3CCCCC3)c(-c3ccc(-c4ccoc4)cc3)cnc12	1–10 µM
O=C(O)c1ccc(-c2ccc(CN(C(=O)c3ccc(Cl)cc3Cl)[C@@H](Cc3ccccc3)C(=O)O)s2)cc1	<5 µM
COc1cc(C(=O)N2[C@@H](c3nccs3)[C@H](c3noc(C4CC4)n3)C[C@@]2(CC(C)C)C(=O)O)ccc1C(C)(C)C	<50 µM
O=C(O)[C@H](Cc1ccccc1)N(Cc1ccc(Br)o1)C(=O)c1ccc(Cl)cc1Br	<5 µM
C[N+]1(Cc2ccccc2)CCN(/N=C\c2ccc(O)c(O)c2)CC1	>400 µM
O=C(O)[C@H](Cc1ccccc1)N(Cc1ccc(-c2cccc(F)c2)o1)C(=O)c1ccc(Cl)cc1Cl	<5 µM
COc1cc(C(=O)N2[C@@H](c3cccs3)[C@@H](c3nc(C)no3)C[C@@]2(CC(C)C)C(=O)O)ccc1C(C)(C)C	<50 µM
O=C(O)C(Cc1ccccc1)N(Cc1cc(-c2ccc(Cl)cc2Cl)cs1)C(=O)c1ccc(Cl)cc1Cl	<5 µM
COc1cc(C(=O)N2[C@@H](c3nccs3)[C@@H](c3nc(C)no3)C[C@@]2(CC(C)C)C(=O)O)ccc1C(C)(C)C	<50 µM

A second listing of 3 rows from above:

COc1cc(C(=O)N2[C@@H](c3cccs3)[C@@H](c3nc(C)no3)C[C@@]2(CC(C)C)C(=O)O)ccc1C(C)(C)C ; value: <50 µM
C[N+]1(Cc2ccccc2)CCN(/N=C\c2ccc(O)c(O)c2)CC1 ; value: >400 µM
O=C(O)[C@H](Cc1ccccc1)N(Cc1ccc(-c2cccc(F)c2)o1)C(=O)c1ccc(Cl)cc1Cl ; value: <5 µM